Measured values from several laboratories, pooled; numbers as filed in NIAID ChemDB.

Shared fields: whole-cell or culture tests; species: Herpes simplex virus 1; read-out: EC50

ECn is the concentration giving n% inhibition of infection, replication or growth. Conditions beyond the fields shown may differ between rows.

{"structure": "O=c1[nH]c(=O)n([C@@H]2C[C@H](CO)[C@@H](O)C2)cc1/C=C/Br", "read by": "cytopathic effect", "cell line": "PRK", "strain or isolate": "McIntyre", "result": "0.02 µg/mL"}
{"structure": "CCCCCCCCCCCCCCCCCCCCCC(=O)OCC(CO[C@@H]1O[C@H](CO)[C@H](O)[C@H](O)[C@H]1O)OC(=O)CCCCCCCCCCCCC", "read by": "plaque count", "cell line": "VERO", "strain or isolate": "KOS", "result": ">50 µg/mL"}
{"structure": "Cc1cn([C@@H]2O[C@H](CO)[C@@H](O)[C@@H]2F)c(=O)[nH]c1=O", "read by": "plaque count", "cell line": "VERO", "strain or isolate": "F-FAU-C2", "result": "3.3 µM"}
{"structure": "CCCNCc1ccc(CNCc2c(CC)c(CNCc3ccc(CNCCC)[nH]3)c(CC)c(CNCc3ccc(CNCCC)[nH]3)c2CC)[nH]1", "read by": "cytopathic effect", "cell line": "Human embryonic lung fibroblasts", "strain or isolate": "KOS", "result": ">20 µM"}
{"structure": "CC[C@@H](NC(=O)[C@@H](CC(=O)[C@@H](CC(=O)[C@@H](NC(=O)[C@H](C(C)C)N(C)C(=O)[C@H](C)CC1CCCCC1)C(C)(C)C)CC(=O)C(C)(C)C)C1(C(=O)O)CCCC1)C(C)(C)C", "read by": "ELISA", "cell line": "BHK-21/C13", "strain or isolate": "DLSPTK", "result": "0.46 µM"}
{"structure": "Nc1nc2c(ncn2COCCP(=O)(N2CCOCC2)N2CCOCC2)c(=O)[nH]1", "read by": "cytopathic effect", "cell line": "VERO E6", "strain or isolate": "L2/R", "result": ">500 µM"}
{"structure": "O=c1[nH]c(=O)n([C@H]2S[C@H](CO)[C@@H](O)[C@@H]2F)cc1/C=C/Br", "read by": "cytopathic effect", "strain or isolate": "VR", "result": ">27 µg/mL"}
{"structure": "Nc1ncnc2c1ncn2[C@@H]1C[C@H](CO)[C@@H](O)[C@@H]1O", "read by": "plaque count", "cell line": "VERO", "strain or isolate": "KOS", "result": "20 µg/mL"}
{"structure": "CCCCCCCCCC(=O)OCC(CO[C@@H]1O[C@H](CO)[C@@H](O)[C@H](O)[C@H]1O)OC(=O)CCCCCCCCC", "read by": "plaque count", "cell line": "VERO", "strain or isolate": "KOS", "result": ">50 µg/mL"}
{"structure": "Nc1nc(Cl)nc2c1ncn2[C@@H]1S[C@H](CO)[C@@H](O)[C@@H]1F", "read by": "cytopathic effect", "strain or isolate": "VR", "result": "1 µg/mL"}
{"structure": "Nc1ncnc2c1ncn2[C@@H]1C[C@H](CO)[C@@H](O)[C@@H]1O", "read by": "plaque count", "cell line": "VERO", "strain or isolate": "F", "result": "30.3 µM"}
{"structure": "CCCCCCCCCCCC(=O)OCC(CO[C@@H]1O[C@H](CO)[C@@H](O)[C@H](O)[C@H]1O)OC(=O)CCCCCCCCCCC", "read by": "plaque count", "cell line": "VERO", "strain or isolate": "KOS", "result": "<50 µg/mL"}
{"structure": "CO[C@H](CO)[C@@H](O)CCn1ccc(N)nc1=O", "read by": "cytopathic effect", "cell line": "E6SM", "strain or isolate": "B2006 (TK-)", "result": ">400 µg/mL"}
{"structure": "CC/C=C/C/C=C/C/C=C/CCCCCCCC(=O)OCC(CO[C@@H]1O[C@H](CO)[C@@H](O)[C@H](O)[C@H]1O)OC(=O)CCCCCCC/C=C/C/C=C/C/C=C/CC", "read by": "plaque count", "cell line": "VERO", "strain or isolate": "KOS", "result": "<50 µg/mL"}
{"structure": "COc1ccc(-c2[nH]c3nc4c(ncn4COCCO)c(=O)n3c2-c2ccc(C(c3ccccc3)c3ccccc3)cc2)cc1", "read by": "cytopathic effect", "strain or isolate": "TK-deficient acyclovir-resistant", "result": ">16 µg/mL"}
{"structure": "Cc1cn(CC[C@H](O)CCO)c(=O)[nH]c1=O", "read by": "cytopathic effect", "cell line": "E6SM", "strain or isolate": "VMW1837 (TK-)", "result": ">400 µg/mL"}
{"structure": "O=c1c2ncn(COCCO)c2[nH]c2ncc(CO)n12", "read by": "cytopathic effect", "strain or isolate": "VMW 1837", "result": ">3.2 µg/mL"}
{"structure": "O=C(O)P(=O)(O)O", "read by": "plaque count", "cell line": "VERO", "strain or isolate": "F-FAU-C2", "result": "28 µM"}
{"structure": "CO[C@H](CO)[C@@H](O)CCn1cnc2c(N)ncnc21", "read by": "cytopathic effect", "cell line": "E6SM", "strain or isolate": "VMW1837 (TK-)", "result": ">400 µg/mL"}
{"structure": "O=c1[nH]c(=O)n([C@H]2C[C@@H](CO)[C@H](O)C2)cc1/C=C/Br", "read by": "cytopathic effect", "cell line": "PRK", "strain or isolate": "KOS", "result": "0.7 µg/mL"}
{"structure": "Nc1nc2c(ncn2COCCO)c(=O)[nH]1", "read by": "plaque count", "cell line": "VERO", "strain or isolate": "KOS", "result": "0.6 µg/mL"}
{"structure": "CCCCCCCCCCCCCCCCCCCCCC(=O)OCC(CO[C@@H]1O[C@H](CO)[C@@H](O)[C@H](O)[C@H]1O)OC(=O)CCCCCCCCCCCCC", "read by": "plaque count", "cell line": "VERO", "strain or isolate": "KOS", "result": ">50 µg/mL"}
{"structure": "Nc1nc2c(ncn2COCCO)c(=O)[nH]1", "cell line": "MRC-5", "strain or isolate": "SC16", "result": "0.06 µg/mL"}
{"structure": "Nc1ncnc2c1ncn2CC[C@H](O)CCO", "read by": "cytopathic effect", "cell line": "E6SM", "strain or isolate": "B2006 (TK-)", "result": ">400 µg/mL"}
{"structure": "Nc1nc2c(ncn2CCCCO)c(=O)[nH]1", "read by": "plaque count", "cell line": "VERO", "strain or isolate": "KJ502", "result": "5 µM"}
{"structure": "O=c1[nH]c(=O)n([C@H]2C[C@H](O)[C@@H](CO)O2)cc1I", "read by": "cytopathic effect", "cell line": "PRK", "strain or isolate": "VDO374", "result": "0.1 µg/mL"}
{"structure": "CCCCCCCC/C=C\\CCCCCCCC(=O)OCC(CO[C@@H]1O[C@H](CO)[C@@H](O)[C@H](O)[C@H]1O)OC(=O)CCCCCCC/C=C\\CCCCCCCC", "read by": "plaque count", "cell line": "VERO", "strain or isolate": "KOS", "result": ">50 µg/mL"}
{"structure": "Nc1ncnc2c1ncn2[C@H]1S[C@H](CO)[C@@H](O)[C@@H]1F", "read by": "cytopathic effect", "strain or isolate": "VR", "result": ">27 µg/mL"}
{"structure": "C[C@@H](c1ccccc1)N(CC(=O)Nc1ccc(-c2csc(N)n2)cc1)C(=O)c1ccncc1", "read by": "plaque count", "cell line": "BHK-21/C13", "strain or isolate": "PAA5", "result": "0.12 µM"}
{"structure": "O=c1c2ncn(COCCO)c2nc2[nH]c(-c3ccccc3)c(-c3ccc(C(c4ccccc4)c4ccccc4)cc3)n12", "read by": "cytopathic effect", "strain or isolate": "McIntyre", "result": ">16 µg/mL"}
{"structure": "Nc1nc2c(ncn2COCCO)c(=O)[nH]1", "read by": "plaque count", "cell line": "VERO", "result": "0.2 µg/mL"}
{"structure": "CSCc1cn([C@H]2C[C@H](O)[C@@H](CO)O2)c(=O)[nH]c1=O", "read by": "cytopathic effect", "cell line": "PRK", "strain or isolate": "VEX142", "result": "10 µg/mL"}
{"structure": "Nc1nc(=O)n([C@@H]2O[C@H](CO)[C@@H](O)[C@@H]2F)cc1I", "read by": "plaque count", "cell line": "VERO", "strain or isolate": "F-FAU-C2", "result": "3.8 µM"}
{"structure": "C=Cc1cn(OC(CO)CO)c(=O)[nH]c1=O", "read by": "plaque count", "cell line": "VERO", "strain or isolate": "KOS (TK+)", "result": ">25 µg/mL"}
{"structure": "O=c1[nH]c(=O)n([C@H]2C[C@H](O)[C@@H](CO)O2)cc1/C=C/Br", "read by": "plaque count", "cell line": "VERO", "strain or isolate": "F-AMAU-C2", "result": "280 µM"}
{"structure": "O=c1[nH]c(=O)n([C@H]2C[C@@H](CO)[C@H](O)C2)cc1I", "read by": "cytopathic effect", "cell line": "PRK", "strain or isolate": "F", "result": "7 µg/mL"}
{"structure": "CCc1c(CN[C@@H]2CCCC[C@H]2N)c(CC)c2c(CC)c1CN[C@@H]1CCCC[C@H]1NCc1ccc([nH]1)CN[C@@H]1CCCC[C@H]1NC2", "read by": "cytopathic effect", "cell line": "Human embryonic lung fibroblasts", "strain or isolate": "TK- KOS ACVr", "result": ">20 µM"}
{"structure": "Nc1nc(F)nc2c1ncn2[C@@H]1S[C@H](CO)[C@@H](O)[C@@H]1F", "read by": "cytopathic effect", "strain or isolate": "VR", "result": "9 µg/mL"}
{"structure": "O=Cc1cn([C@H]2C[C@H](O)[C@@H](CO)O2)c(=O)[nH]c1=O", "read by": "cytopathic effect", "cell line": "PRK", "strain or isolate": "VDO374", "result": "0.4 µg/mL"}
{"structure": "c1c[nH]c(CNCc2cc(CNCc3ccc[nH]3)cc(CNCc3ccc[nH]3)c2)c1", "read by": "cytopathic effect", "cell line": "Human embryonic lung fibroblasts", "strain or isolate": "TK- KOS ACVr", "result": ">20 µM"}
{"structure": "O=c1[nH]c(=O)n([C@@H]2C[C@H](CO)[C@@H](O)C2)cc1I", "read by": "cytopathic effect", "cell line": "PRK", "strain or isolate": "KOS", "result": "0.07 µg/mL"}
{"structure": "CCc1c2c(CC)c(CN[C@H]3CCCC[C@@H]3N)c(CC)c1CN[C@H]1CCCC[C@@H]1NCc1ccc([nH]1)CN[C@H]1CCCC[C@@H]1NC2", "read by": "cytopathic effect", "cell line": "Human embryonic lung fibroblasts", "strain or isolate": "KOS", "result": ">20 µM"}
{"structure": "Nc1c(N=Cc2ccc(C(F)(F)F)cc2)cc2cccnc2c1Cl", "read by": "plaque count", "cell line": "VERO 76", "strain or isolate": "KOS", "result": "90 µM"}
{"structure": "CCCCCCCCCCCC(=O)OC[C@H](CO[C@@H]1O[C@H](CO)[C@@H](O)[C@H](O)[C@H]1O)OC(=O)CCCCCCCCCCC", "read by": "plaque count", "cell line": "VERO", "strain or isolate": "KOS", "result": "23 µg/mL"}
{"structure": "O=c1c2ncn(COCCO)c2[nH]c2ncc(C(c3ccccc3)(c3ccccc3)c3ccccc3)n12", "read by": "cytopathic effect", "strain or isolate": "KOS", "result": ">16 µg/mL"}

4 of the rows above, restated:

O=c1[nH]c(=O)n([C@@H]2C[C@H](CO)[C@@H](O)C2)cc1I ; read by: cytopathic effect ; cell line: PRK ; strain or isolate: KOS ; result: 0.07 µg/mL
Nc1nc2c(ncn2COCCO)c(=O)[nH]1 ; cell line: MRC-5 ; strain or isolate: SC16 ; result: 0.06 µg/mL
Nc1nc2c(ncn2COCCO)c(=O)[nH]1 ; read by: plaque count ; cell line: VERO ; strain or isolate: KOS ; result: 0.6 µg/mL
Nc1nc2c(ncn2CCCCO)c(=O)[nH]1 ; read by: plaque count ; cell line: VERO ; strain or isolate: KJ502 ; result: 5 µM